PubChem BioAssay AID504761 | Drosophila RNAi Screening Center – 2011

Purpose: 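Fly genes whose silencing reduces dengue virus type 2 infection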 (primary screen)
Cells: D.Mel-2 cells from Drosophila
Reagent: long dsRNA against Drosophila genes
Challenge: infection with dengue virus type 2; dose and infection time not stated
Measurement: 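Cells stained for dengue envelope protein and imaged; percent of infected cells per well on duplicate plates, ranked by infection, with stained nuclei counted for cell number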
Scale: infection score: higher = more virus-infected cells; cell count: higher = more cells in the well
Call rule: 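Low infection ranks in the two replicates (chance level up to 0.065) followed by a retest with a 1.5-fold or larger significant decrease, p below 0.05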
Calls: active = confirmed: knock-down lowers infection; inactive = not picked or not confirmed
In all, the deposit lists about 22,000 reagents; this is a random part of those with a known target gene and a result. Of all reagents, 116 (0.52%) are marked active. 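Calls depend on retest data that are not deposited; infection was ranked per plate without normalising between plates; the unit of the infection score is not given.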 Raw values are not corrected between plates. Unmarked entries are inactive. Names joined by + are all predicted targets of the reagent. The record does not give: the amount of reagent, the time to read-out.

target gene	amplicon	infection score, replicate 1	infection score, replicate 2	cell count, replicate 1	cell count, replicate 2
CG30284	DRSC22150	6.74	11.1	6438	5793
CG10353	DRSC19354	4.21	6.16	6275	6522
CG10353	DRSC29888	20.4	9.54	6089	6091
Zif	DRSC12514	4.75	7.02	5157	5331
Nup160 + RfC38	DRSC01997	24.6	14.2	6126	6011
S6kII	DRSC20645	5.61	7	6575	6543
Mip	DRSC23429	2.8	9.29	6243	5682
Cda4	DRSC20623	4.01	1.55	6081	5744
Cda4	DRSC20641	1.39	2.35	5755	5619
Cda4	DRSC20642	3.23	1.57	6070	5995
Arpc3B	DRSC20126	14	3.93	5750	6496
Arpc3B	DRSC28523	9.45	21.4	2562	4993
CG13926	DRSC08395	6.16	2.26	5940	6249

Records above whose target name begins with A or a:
target gene	amplicon	infection score, replicate 1	infection score, replicate 2	cell count, replicate 1	cell count, replicate 2
Arpc3B	DRSC20126	14	3.93	5750	6496
Arpc3B	DRSC28523	9.45	21.4	2562	4993

Next entries:
target gene	amplicon	infection score, replicate 1	infection score, replicate 2	cell count, replicate 1	cell count, replicate 2
Ibf2	DRSC16551	4.28	3.33	6773	6670
barc	DRSC11792	22.9	16.8	2723	5017
Nnp-1	DRSC02165	6.28	7.79	6195	6351
Nnp-1	DRSC29816	24.6	13.1	5088	4819
z	DRSC23134	2.79	6.45	5946	6167
CG31016	DRSC21359	4.65	15.9	6047	5742
CG31016	DRSC27353	11.7	6.89	6005	6459
CG2260	DRSC18223	21.5	12.5	4689	5982
CG2260	DRSC28536	20.1	6.47	4735	1452
drm	DRSC00277	3.3	7.22	6118	6328
